In assay [1] the test system is Mycobacterium tuberculosis variant bovis. The assay can be described thus: Antibacterial activity against Mycobacterium bovis BCG harboring pTIC6-fbpB overexpressing Ag85B assessed as fold increase in MIC by end point resazurin assay relative to empty vector control.
Assay [2] has the same test system. As to the kind of experiment: Antibacterial activity against Mycobacterium bovis BCG harboring pTIC6-fbpC overexpressing Ag85C assessed as fold increase in MIC by end point resazurin assay relative to empty vector control. For orientation: The colour change of resazurin is a common sign of viable cells or microbes.

For the molecule `O=c1c2ccccc2[se]n1-c1ccccc1`, the fold change (FC) in assay [1] and in assay [2] was 3 throughout.
As to `Brc1cc(Br)cc([C@H]2C[C@@H](CN3CCCC3)N2Cc2ccccc2Br)c1`, the fold change (FC) in assay [1] and in assay [2] was 2 each time.
`CNC[C@@H]1C[C@H](c2ccc(OC(F)(F)F)cc2)N1Cc1ccccc1OC(F)(F)F`: the fold change (FC) in assay [1] and in assay [2] was 2 in each case.

The values are drawn from ChEMBL document CHEMBL5385915 (J Med Chem, 2024).
